PubChem BioAssay AID504761 – Drosophila RNAi Screening Center – 2011

Test: 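Genome-wide fly cell screen for genes dengue virus requires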 (primary screen)
Cells: D.Mel-2 cells from Drosophila
Knock-down reagent: long dsRNA against Drosophila genes
Challenge: infection with dengue virus type 2; dose and infection time not stated
Read-out: 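Per well on two replicate plates, imaging gave the percent of cells positive for viral envelope protein, ranked by infection, and a nuclear count of cells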
Reading the numbers: infection score: higher = more virus-infected cells; cell count: higher = more cells in the well
Call rule: 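Very low infection ranking in both replicate wells (chance probability at most 0.065), then a retest showing infection dropped 1.5-fold or more at p below 0.05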
Calls: active = confirmed: knock-down lowers infection; inactive = not picked or not confirmed
The screen tested about 22,000 reagents; this is a random part of those that have a named target and a result. Of all reagents, 116 (0.52%) were called active. 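Calls depend on retest data that are not deposited; infection was ranked per plate without normalising between plates; the unit of the infection score is not given.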 The raw values are shown without normalisation. Names joined by + are all predicted targets of the reagent. No sequences are given here. Not stated in the record: the amount of reagent, the time to read-out.

no.	gene	DRSC id	infection score, replicate 1	infection score, replicate 2	cell count, replicate 1	cell count, replicate 2	Call
1	CG7430	DRSC10845	5.3	8.57	5750	6197	inactive
2	Crz	DRSC16615	5.29	2.83	5502	6651	inactive
3	lz	DRSC18790	0.32	1.02	6501	7131	active
4	lz	DRSC22302	0.67	2.18	6153	6562	inactive
5	lz	DRSC25157	9.7	2.21	6250	6201	inactive
6	RpL3 + CG6693	DRSC16097	6.52	3.75	5812	5891	inactive
7	CG13869 + CG11099	DRSC06428	0.95	0.29	6445	6501	inactive
8	CG13869 + CG11099	DRSC24218	6.75	6.16	6389	6231	inactive
9	Polr1H	DRSC14594	8.04	4.08	6107	6421	inactive
10	Polr1H	DRSC28980	17.5	8.46	1422	5885	inactive
11	Rpp14b	DRSC15063	9.62		6455	279	inactive
12	CG5646	DRSC15853	4.17	11.1	6449	6687	inactive
13	CG5646	DRSC29759	7.87	4.19	6631	6200	inactive
14	ph-d	DRSC23191	2.84	6.4	5917	6496	inactive
15	ph-d	DRSC29736	15	13.7	6238	6096	inactive
16	CG11414	DRSC04110	17	44	6652	5419	inactive
17	dsd	DRSC13829	5.37	2.61	5732	4718	inactive
18	dsd	DRSC15850	2.58	3.62	6590	6487	inactive
19	CG13875	DRSC08345	4.05	5.36	6427	6230	inactive
20	CG14566	DRSC11727	4.09	8.38	6527	6576	inactive
21	CG14566	DRSC25467	11.2	24.9	5513	5122	inactive
22	lgs	DRSC17152	1.48	5.34	271	6854	inactive
23	ninaE	DRSC17014	2.95	16	745	5355	inactive
24	ninaE	DRSC25724	1.89	2.01	5601	6128	inactive
25	CG2772	DRSC00530	8.39	9.11	6809	6567	inactive
26	CG2772	DRSC27114	23.6	24.6	5941	5515	inactive
27	spn-A	DRSC16812	7.38	2.31	6179	6135	inactive
28	Schip1	DRSC02851	3.2	2	5930	6346	inactive
29	Schip1	DRSC28775	12.9	6.55	3180	2643	inactive
30	polybromo	DRSC14307	4.95	10.6	6317	6495	inactive
31	CG6503	DRSC16056	5.04	13.8	1349	3857	inactive
32	CG6503	DRSC29619	21.9	12.7	4273	4941	inactive
33	Rassf	DRSC15612	3.97	9.73	6797	6812	inactive
34	Rassf	DRSC28891	13.9	14.8	5731	5096	inactive
35	CG5149	DRSC02819	6.16	3.1	5583	6413	inactive
36	CG5149	DRSC27178	8.91	7.56	6665	6708	inactive
37	LpR1	DRSC15665	3.62	10.1	7076	6653	inactive
38	LpR1	DRSC15669	3.46	4.14	5989	5773	inactive
39	LpR1	DRSC15670	0.73	3.51	6261	6259	inactive
40	LpR1	DRSC27848	11.8	21.3	3999	5466	inactive
41	betaNACtes4	DRSC19801	20	17.3	5502	5606	inactive
42	Osi2	DRSC12174	6.04	3.6	6171	6525	inactive
43	Osi2	DRSC28374	21.2	15.9	4875	5726	inactive
44	CheA29a	DRSC21486	3.3	4.67	5872	5830	inactive
45	CG10862	DRSC08170	0.62	4.89	6448	6518	inactive
46	CG15212	DRSC10212	1.23	2.19	6098	5812	inactive
47	mEFTu2	DRSC06163	24.8	38.5	6237	5638	inactive
48	CG16798	DRSC02517	3.15	7.46	7053	6820	inactive
49	CG33267	DRSC09120	1.31	1.53	6091	6480	inactive
50	Uck	DRSC16028	1.88	1.13	6700	6627	inactive
51	CG15118	DRSC06540	3.64	6.17	6737	6399	inactive
52	gammaTub23C	DRSC00820	2.42	0.44	5335	5895	inactive
53	gammaTub23C	DRSC27651	11.7	40.9	6704	3554	inactive
54	CG34347	DRSC14305	2.69	3.57	782	6722	inactive
55	CG34347	DRSC23044	1.2	20.9	5567	3088	inactive
56	CG34347	DRSC24430	1.55	1.52	6373	6497	inactive
57	CG9727	DRSC12585	5.41	11.9	5511	4355	inactive
58	CG9727	DRSC28868	19.2	11.6	2966	2743	inactive

Called active, of those listed so far:
gene	DRSC id	infection score, replicate 1	infection score, replicate 2	cell count, replicate 1	cell count, replicate 2	Call
lz	DRSC18790	0.32	1.02	6501	7131	active
